Target: Enoyl-[acyl-carrier-protein] reductase [NADPH] FabI (Staphylococcus aureus, UniProt Q6GI75)
Assay: Inhibition of Staphylococcus aureus ATCC 29213 FabI in the presence of NADH using crotonyl CoA as substrate by measuring NADH consumption rate

Protein sequences, listed by entry. Tags and fused reporters are not part of them. Lines headed by an entry give the natural chain unless they say otherwise; changes in a name come on top.
UniProt Q6GI75: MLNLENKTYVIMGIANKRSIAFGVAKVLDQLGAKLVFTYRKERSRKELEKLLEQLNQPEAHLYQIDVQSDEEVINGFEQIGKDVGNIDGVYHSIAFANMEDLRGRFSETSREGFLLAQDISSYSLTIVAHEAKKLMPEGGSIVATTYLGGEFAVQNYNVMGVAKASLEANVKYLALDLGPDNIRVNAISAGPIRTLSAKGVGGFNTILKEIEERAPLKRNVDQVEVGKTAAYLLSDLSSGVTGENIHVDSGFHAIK

CC(C)CCC/C=C\CCCCCCCC(=O)O
IC50: 16 µM

— ChEMBL document CHEMBL5230110, “FabI (enoyl acyl carrier protein reductase) - A potential broad spectrum therapeutic target and its inhibitors” (Eur J Med Chem, 2020)
